Reference: PubChem BioAssay AID651640 (Broad Institute, 2012)
Only a part is listed here, and it is no random draw. Results filed as inconclusive are left out. Calls of active or inactive are those of the source. Cut-off read from the data, not from the text of the source: active = CPE inhibition above about 20% (passing the limit was not always enough); inconclusive = no clear call, values can overlap the other calls; tested in BHK-21 cells.

Experiment: protection of cells from dengue 2 killing – plate reader, single concentration, primary screen (AID 651640);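 note: 0% = median of neutral control wells and 100% = median of positive control wells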
Conditions: DENV2-infected cells, cytopathic effect rescue, at 9.99 µM, hits give high values

Row | Compound | CPE inhibition
1 | O=c1[nH]c2ccccc2n1C1CCN(C(c2cccc3ccccc23)c2nnnn2C2CCCC2)CC1 (configuration not stated) | inactive: 5.14%
2 | COc1cc(C(=O)NCC2(N(C)C)CCCCC2)ccc1OC(F)F | inactive: -4.3%
3 | CCOC(=O)N1CCC(Nc2cccc(C)c2)CC1 | inactive: 8.12%
4 | O=C(NCC1(N2CCCCC2)CCCCC1)c1ccc(F)cc1 | inactive: 10.2%
5 | CCCCn1nnnc1C(c1cc2ccccc2o1)N1CCC(n2c(=O)[nH]c3ccccc32)CC1 (configuration not stated) | inactive: -2.15%
6 | CCCCOc1ccc(C(=O)NCC2(N3CCOCC3)CCCCC2)cc1 | inactive: -4.95%
7 | CCOC(=O)N1CCC(Nc2ccc(F)cc2)CC1 | inactive: 2.25%
8 | CCOc1ccc(C)cc1CN(CCCl)CCCl | inactive: 5.08%
9 | CC(C)(C)n1nnnc1C(c1ccccc1)N1CCC(n2c(=O)[nH]c3ccccc32)CC1 (configuration not stated) | inactive: -5.36%
10 | O=C1CCN(Cc2ccccc2)CC1 | inactive: -12.6%
11 | CCOC(=O)N1CCC(Nc2ccc(OC)cc2)CC1 | inactive: 7.26%
12 | CCCCn1nnnc1C(c1ccc(OC)cc1)N1CCC(n2c(=O)[nH]c3ccccc32)CC1 (configuration not stated) | inactive: -6.74%
13 | O=C(OC1CN2CCC1CC2)C1c2ccccc2Oc2ccccc21 (configuration not stated) | inactive: -0.56%
14 | O=c1[nH]c2ccccc2n1C1CCN(C(c2cc3ccccc3o2)c2nnnn2C2CCCCC2)CC1 (configuration not stated) | inactive: 18.7%
15 | O=C(NCC1(N2CCCCC2)CCCCC1)c1ccc(Cl)s1 | inactive: 3.28%
16 | N#CC1(Nc2ccccc2)CCN(Cc2ccccc2)CC1 | inactive: 7.17%
17 | COc1ccc(Cl)cc1C(=O)NCC1(N2CCOCC2)CCCCC1 | inactive: 5.97%
18 | O=c1[nH]c2ccccc2n1C1CCN(C(c2ccccc2OC(F)(F)F)c2nnnn2C2CCCCC2)CC1 (configuration not stated) | inactive: -7.8%
19 | O=C(NCC1(N2CCCCC2)CCCCC1)c1ccc(Cl)nc1 | inactive: -5.79%
20 | Cc1cc(C)cc(N(C(=O)c2ccccc2)C2CCN(C(=O)OC(C)(C)C)CC2)c1 | inactive: 3.22%
21 | Cc1cccc(NC2(C#N)CCN(Cc3ccccc3)CC2)c1 | inactive: -0.208%
22 | O=C(NCC1(N2CCCCC2)CCCCC1)c1ccc(=O)[nH]c1 | inactive: -12.4%
23 | CCCCn1nnnc1C(c1cccs1)N1CCC(n2c(=O)[nH]c3ccccc32)CC1 (configuration not stated) | inactive: 1.23%

Row | Compound | CPE inhibition
24 | CCCCn1nnnc1C(CC)N1CCC(n2c(=O)[nH]c3ccccc32)CC1 (configuration not stated) | inactive: -0.874%
25 | O=C(NCC1(N2CCCCC2)CCCCC1)c1cccs1 | inactive: 1.05%
26 | COc1ccc(C(=O)NCC2(N3CCCCC3)CCCCC2)cc1 | inactive: -4.56%
27 | CCC(c1nnnn1C1CCCC1)N1CCC(n2c(=O)[nH]c3ccccc32)CC1 (configuration not stated) | inactive: 7.77%
28 | COc1ccc(C(=O)NCC2(N3CCCCC3)CCCCC2)c(OC)c1OC | inactive: -4.47%
29 | CC(C)(C)OC(=O)N1CCC(N(C(=O)c2ccccc2)c2ccc(F)cc2)CC1 | inactive: 2.93%
30 | Cc1ccc(C(=O)NCC2(N(C)C)CCCCC2)o1 | inactive: -8.25%
31 | CCCOc1ccc(C(=O)NCC2(N(C)C)CCCCC2)cc1OC | inactive: 1.85%
32 | COc1ccc(C(c2nnnn2C2CCCC2)N2CCC(n3c(=O)[nH]c4ccccc43)CC2)cc1 (configuration not stated) | inactive: -1.79%
33 | O=C(NCC1(N2CCCCC2)CCCCC1)c1cncc(Br)c1 | inactive: 12.4%
34 | CN1CCC(Nc2cccc(F)c2)CC1 | inactive: 11.1%
35 | CCCCn1nnnc1C(c1ccnc2ccccc12)N1CCC(n2c(=O)[nH]c3ccccc32)CC1 (configuration not stated) | inactive: 5.25%
36 | COc1cc(OC)c(C(=O)NCC2(N(C)C)CCCCC2)cc1OC | inactive: -1.81%
37 | O=C(NCC1(N2CCOCC2)CCCCC1)c1cc(F)c(F)cc1Cl | inactive: 1.66%
38 | CCC(c1nnnn1C(C)(C)C)N1CCC(n2c(=O)[nH]c3ccccc32)CC1 (configuration not stated) | inactive: -4.18%
39 | COc1ccc(CN(CCCl)CCCl)cc1Cl | inactive: -8.35%
40 | CN(C)c1cccc(C(=O)NCC2(N3CCCCC3)CCCCC2)c1 | inactive: -0.442%
41 | CC(C)c1ccc(NC2CCN(C(=O)OC(C)(C)C)CC2)cc1 | inactive: 0.098%
42 | CCCCn1nnnc1C(c1cccc2ccccc12)N1CCC(n2c(=O)[nH]c3ccccc32)CC1 (configuration not stated) | inactive: -1.21%
43 | CN1CCN(CCOC(=O)C(O)(c2ccccc2)c2ccccc2)CC1 | inactive: -12.9%
44 | COc1ccc(NC2CCN(C(=O)OC(C)(C)C)CC2)cc1 | inactive: 5.28%
45 | CC(C)c1ccc(C(=O)NCC2(N3CCOCC3)CCCCC2)cc1 | inactive: 5.23%
46 | COc1cc(C(=O)NCC2(N3CCCCC3)CCCCC2)ccc1OC(F)F | inactive: 9.66%

Row | Compound | CPE inhibition
47 | O=C(NCC1(N2CCCCC2)CCCCC1)c1cccc(C(F)(F)F)c1 | inactive: 2.33%
48 | O=C(NCC1(N2CCCCC2)CCCCC1)c1cccc([N+](=O)[O-])c1 | inactive: 2.05%
49 | CSc1ccc(C(=O)NCC2(N3CCOCC3)CCCCC2)cc1 | inactive: -6.9%
50 | CCN1CCC(Nc2ccc(Cl)cc2)CC1 | inactive: 7.21%
51 | O=c1[nH]c2ccccc2n1C1CCN(C(c2ccccc2OC(F)(F)F)c2nnnn2C2CCCC2)CC1 (configuration not stated) | inactive: 10.8%
52 | CC(C)(C)n1nnnc1C(c1ccccc1OC(F)(F)F)N1CCC(n2c(=O)[nH]c3ccccc32)CC1 (configuration not stated) | inactive: -1.45%
53 | O=C(NCC1(N2CCCCC2)CCCCC1)c1ccc(OC(F)F)cc1 | inactive: 1.64%
54 | CC(C)(C)n1nnnc1C(c1cccc2ccccc12)N1CCC(n2c(=O)[nH]c3ccccc32)CC1 (configuration not stated) | inactive: -11.1%
55 | C/C(N)=N\P(=O)(Oc1ccccc1)Oc1ccccc1 | inactive: 2.53%
56 | CCCN1CCC(Nc2cc(OC)cc(OC)c2)CC1 | inactive: -1.7%
57 | O=c1[nH]c2ccccc2n1C1CCN(C(c2ccccc2)c2nnnn2C2CCCC2)CC1 (configuration not stated) | inactive: 16.2%
58 | Cc1cc(N(CCCl)CCCl)ccc1C=O | inactive: 2.22%
59 | CN(C)C1(CNC(=O)c2cccc(C#N)c2)CCCCC1 | inactive: -0.62%
60 | CC(C)(C)OC(=O)N1CCC(N(C(=O)c2ccccc2)c2ccc(Cl)cc2)CC1 | inactive: -0.952%
61 | N#Cc1ccc(C(=O)NCC2(N3CCCCC3)CCCCC2)cc1 | inactive: 8.21%
62 | CCCCn1nnnc1C(c1cccc(OC)c1OC)N1CCC(n2c(=O)[nH]c3ccccc32)CC1 (configuration not stated) | inactive: -2.38%
63 | O=c1[nH]c2ccccc2n1C1CCN(C(c2cccs2)c2nnnn2C2CCCC2)CC1 (configuration not stated) | inactive: -15.7%
64 | COc1cccc(C(c2nnnn2C(C)(C)C)N2CCC(n3c(=O)[nH]c4ccccc43)CC2)c1OC (configuration not stated) | inactive: -4.22%
65 | CCOC(=O)N1CCC(Nc2ccc(C)cc2)CC1 | inactive: 2.44%
66 | COc1ccc(C(=O)NCC2(N3CCOCC3)CCCCC2)cc1OC | inactive: -0.756%
67 | O=c1[nH]c2ccccc2n1C1CCN(C(c2ccnc3ccccc23)c2nnnn2C2CCCC2)CC1 (configuration not stated) | inactive: -3.18%
68 | O=c1[nH]c2ccccc2n1C1CCN(C(c2cccs2)c2nnnn2C2CCCCC2)CC1 (configuration not stated) | inactive: 7.33%
69 | O=C(NCC1(N2CCOCC2)CCCCC1)c1cc(Br)ccc1Cl | inactive: 4.11%

Row | Compound | CPE inhibition
70 | CCCCn1nnnc1C(c1ccccc1)N1CCC(n2c(=O)[nH]c3ccccc32)CC1 (configuration not stated) | inactive: 16.7%
71 | COc1cc(C(=O)NCC2(N3CCOCC3)CCCCC2)cc(OC)c1C | inactive: 0.517%
72 | CN1CCC(Nc2ccc(Cl)cc2)CC1 | inactive: 1.89%
73 | COc1cc(OC)cc(C(=O)NCC2(N3CCOCC3)CCCCC2)c1 | inactive: 9.09%
74 | COc1cccc(C(c2nnnn2C2CCCC2)N2CCC(n3c(=O)[nH]c4ccccc43)CC2)c1OC (configuration not stated) | inactive: -3.52%
75 | COc1cccc(C(=O)N(c2cc(C)cc(C)c2)C2CCN(C(=O)OC(C)(C)C)CC2)c1 | inactive: -1.81%
76 | CCCOc1ccc(C(=O)NCC2(N(C)C)CCCCC2)cc1 | inactive: 3.16%
77 | O=c1[nH]c2ccccc2n1C1CCN(C(c2cc3ccccc3o2)c2nnnn2C2CCCC2)CC1 (configuration not stated) | inactive: -2.35%
78 | CC(C)(C)OC(=O)N1CCC(Nc2ccccc2)CC1 | inactive: -4.73%
79 | O=C(O)C1(Nc2ccccc2)CCN(Cc2ccccc2)CC1 | inactive: -1.33%
80 | NN(c1ccccc1)C1CCN(CCc2ccccc2)CC1 | inactive: -1.36%
81 | CN1CCC(Nc2ccc(F)c(Cl)c2)CC1 | inactive: -2.8%
82 | Cn1c(=O)[nH]cc(N(CCCl)CCCl)c1=O | inactive: -2.14%
83 | Cc1ccccc1NC1(C#N)CCN(Cc2ccccc2)CC1 | inactive: -5.12%
84 | CC(C)(C)n1nnnc1C(c1ccnc2ccccc12)N1CCC(n2c(=O)[nH]c3ccccc32)CC1 (configuration not stated) | inactive: 3.6%
85 | COc1ccc(C(c2nnnn2C2CCCCC2)N2CCC(n3c(=O)[nH]c4ccccc43)CC2)cc1 (configuration not stated) | inactive: -2.55%
86 | Cc1ccc(NC2(C#N)CCN(Cc3ccccc3)CC2)cc1 | inactive: 2.99%
87 | Fc1ccccc1NC1CCN(Cc2ccccc2)CC1 | inactive: -1.39%
88 | O=c1[nH]c2ccccc2n1C1CCN(C(c2ccnc3ccccc23)c2nnnn2C2CCCCC2)CC1 (configuration not stated) | inactive: 5.27%
89 | COc1cc(OC)cc(C(=O)NCC2(N3CCCCC3)CCCCC2)c1 | inactive: 4.39%
90 | CC(=O)N(c1ccccc1)C1CCNCC1 | inactive: 5.24%
91 | COc1cccc(C(c2nnnn2C2CCCCC2)N2CCC(n3c(=O)[nH]c4ccccc43)CC2)c1OC (configuration not stated) | inactive: -11.3%
92 | CCC(c1nnnn1C1CCCCC1)N1CCC(n2c(=O)[nH]c3ccccc32)CC1 (configuration not stated) | inactive: 0.938%
